Pooled drug test results. Numbers come from NIAID ChemDB, via PubChem.

Shared fields: whole-cell or culture tests; agent: Mycobacterium avium

MIC50, MIC90 and the like: level of inhibition, or share of isolates inhibited. An empty or dashed field is not shown. Neighbouring rows are from separate reports. Two numbers with a dash give a range or band.

structure,setting,method,endpoint,strain or isolate,result
Clc1ccc(/C(Cn2ccnc2)=N/OC/C=C/c2ccccc2)c(Cl)c1,,,MIC,CIP103317,>16 µg/mL
CCCCCOc1ccc(NC(=O)OCCN(C)C)cc1,,,MIC,MY330/88,32 µM
NC(=O)c1cnccn1,14 d,,MIC,330/88,>1000 µM
C(=C\c1ccccc1)/CNc1ccc(N2CCSCC2)cc1,,,MIC,103317,24.7 µM
O=C1C(=S)N(Cc2ccccc2)c2ccccc21,,,MIC,CNCTC D5/93,500 µM
CC(C)(C)c1ccc(COC(Cn2ccnc2)c2ccc(Cl)cc2Cl)cc1,,,MIC,103317,2.48 µM
Cc1ccc2nc(SCc3ccc(Br)cc3)[nH]c2c1,,,MIC,MY330/88,>62 µM
O=C(NNC(=O)c1ccncc1)Nc1ccc(F)c(C(F)(F)F)c1,21 d,broth dilution,MIC100,MY330/88,>125 µM
c1ccc(-c2ccc(CNc3ccccc3N3CCOCC3)cc2)cc1,,,MIC,103317,89.4 µM
CCS/C(N)=N/N=C/c1ccc2ccccc2n1.CCS/C(N)=N/N=C/c1ccc2ccccc2n1,,,MIC,CNCTC MY66/72,8 µM
COc1cccc(CSc2nc3ccc(C)cc3[nH]2)c1,,,MIC,MY330/88,>32 µM
O=C(Nc1ccc(N2CCSCC2)cc1)c1ccc(-c2ccccc2)cc1,,,MIC,103317,82.5 µM
CCCCCCCCOc1ccccc1NC(=O)OCCN1CCOCC1,,,MIC,MY330/88,32 µM
O=C(Oc1ccc(Cl)cc1C(=O)Nc1cccc(Cl)c1)c1cnccn1,14 d,,MIC,330/88,8 µM
CCS/C(N)=N/N=C/c1ccc2cc(Cl)ccc2n1,,,MIC,CNCTC MY80/72,32 µM
O=C(Oc1ccc(Cl)cc1C(=O)Nc1ccc(Br)cc1)c1cnccn1,21 d,,MIC,330/88,8 µM
CCOc1c(N2CCC(C(C)(C)N)C2)c(F)cc2c(=O)c(C(=O)O)cn(C3CC3)c12,,,MIC,RG2,1 µg/mL
Cc1ccn2c(C(=O)NCc3ccc4c(c3)CCO4)c(C)nc2c1,,resazurin,MIC,101,<2 µM
O=C(NNC(=O)c1ccncc1)Nc1ccc(C(F)(F)F)cc1,14 d,broth dilution,MIC100,MY330/88,>125 µM
COc1ccc(NC(=O)c2ccccc2O)cc1,,,MIC,CNCTC MY330/88,125 µM
Cc1ccn2c(C(=O)NCc3ccc(N4CCOCC4)c(F)c3)c(C)nc2c1,,resazurin,MIC,2151,2–10 µM
CCCCCCCOc1ccccc1NC(=O)OCCN1CCCCC1,,,MIC,MY330/88,32 µM
c1ccc(-c2ccc(CNc3ccc(N4CCSCC4)cc3)cc2)cc1,,,MIC,103317,85.5 µM
O=C(NCc1ccc(Cl)c(Cl)c1)c1ncccc1O,,,MIC,CNCTC MY330/88,62.5 µM
CCCC(C)S/C(N)=N/N=C/c1ccc2ccccc2n1,,,MIC,CNCTC MY66/72,16 µM
O=C(Oc1ccc(Cl)cc1C(=O)Nc1cccc(C(F)(F)F)c1)c1cnccn1,21 d,,MIC,330/88,32 µM
C(=C\c1ccccc1)/CO/N=C(/Cn1ccnc1)c1ccccc1,,,MIC,CIP103317,>16 µg/mL
CCn1c(S)c(N=NC(N)=[NH2+])c2ccccc21,,,MIC,CNCTC D5/93,250 µM
CCCCCCCCCCOc1cccc(NC(=O)OCC[NH+]2CCCC2)c1,,,MIC,MY330/88,16 µM
CCCOc1cccc(NC(=O)OCCN2CCCCCC2)c1,,,MIC,MY330/88,250 µM
CCCCCCOc1ccccc1NC(=O)OCC[NH+]1CCCC1,,,MIC,MY330/88,62.5 µM
O=C1C(=S)N(c2ccccc2)c2ccccc21,,,MIC,CNCTC MY80/72,63 µM
CCCCCCCCOc1ccccc1NC(=O)OCC[NH+]1CCCC1,,,MIC,MY330/88,16 µM
O=C(NNC(=O)c1ccncc1)Nc1ccc(Br)c(F)c1,21 d,broth dilution,MIC100,MY330/88,>125 µM
CCCCCOc1cccc(NC(=O)OCC[NH+]2CCCC2)c1,,,MIC,MY330/88,62.5 µM
CN1C(=S)C(=O)c2ccccc21,,,MIC,CNCTC MY80/72,63 µM
c1ccc(-c2ccc(CNc3ccc(N4CCOCC4)cc3)cc2)cc1,,,MIC,103317,11.2 µM
CCCCCCCCCOc1ccccc1NC(=O)OCCN(C)C,,,MIC,MY330/88,16 µM
CCCCCOc1ccccc1NC(=O)OC(C)CN1CCCCC1,,,MIC,MY330/88,125 µM
Clc1ccc(/C(Cn2ccnc2)=N\OCc2ccc(-c3ccccc3)cc2)cc1,,,MIC,CIP103317,16 µg/mL
Cc1ccc2nc(SCc3cccc(C(N)=S)c3)[nH]c2c1,,,MIC,MY330/88,62 µM
COc1ccc(Nc2nnc(-c3ccncc3)o2)cc1,14 d,broth dilution,MIC100,MY330/88,>125 µM
Cc1ccn2c(C(=O)NCc3ccc(N4CCC5(CC4)OCC(C)CO5)c(F)c3)c(C)nc2c1,,resazurin,MIC,2151,2–10 µM
CCCCS/C(N)=N/N=C/c1ccc2ccccc2n1,,,MIC,CNCTC D5/93,32 µM
Cc1ccn2c(C(=O)NCc3ccc4c(c3)CCO4)c(C(F)(F)F)nc2c1,,resazurin,MIC,101,<2 µM
CCCCCCCOc1cccc(NC(=O)OCCN2CCCCC2)c1,,,MIC,MY330/88,32 µM
O=C(Oc1cc(Cl)ccc1C(=O)Nc1ccc(Cl)cc1)c1cnccn1,14 d,,MIC,330/88,2 µM
CCCCOc1ccccc1NC(=O)OC(C)CN1CCCCC1,,,MIC,MY330/88,250 µM
CC(C)(C)n1cc(C(=O)O)c(=O)c2cc(F)c(N3CCNCC3)nc21,,,MIC,RG3,0.5 µg/mL
Cc1ccn2c(C(=O)NCc3ccc(N4CCC(NC(=O)OC(C)(C)C)CC4)c(F)c3)c(C)nc2c1,,resazurin,MIC,2151,2–10 µM
Clc1ccc(/C(Cn2ccnc2)=N\OCc2ccc(-c3ccccc3)cc2)c(Cl)c1,,,MIC,103317,18.3 µM
O=C(NCc1ccc(C(F)(F)F)cc1)c1ncccc1O,,,MIC,CNCTC MY330/88,62.5 µM
CCCOc1ccc(NC(=O)OCCN2CCCCCC2)cc1,,,MIC,MY330/88,125 µM
O=C(NNC(=O)c1ccncc1)Nc1ccc(Br)c(C(F)(F)F)c1,14 d,broth dilution,MIC100,MY330/88,>125 µM
CC(C)N=c1cc2n(-c3ccc(Cl)cc3)c3ccccc3nc-2cc1Nc1ccc(Cl)cc1,,,MIC,18698,0.7 µg/mL
O/N=C(\Cn1ccnc1)c1ccccc1,,,MIC,103317,79.5 µM
CCCCCOc1ccc(NC(=O)OC(C)CN2CCCCC2)cc1,,,MIC,MY330/88,32 µM
O=C(Nc1ccccc1)c1ncccc1O,,,MIC,CNCTC MY330/88,250 µM
c1ccc(/C(Cn2ccnc2)=N\OCc2ccc(-c3ccccc3)cc2)cc1,,,MIC,CIP103317,16 µg/mL
Cc1ccc2nc(SCc3ccccc3Cl)[nH]c2c1,,,MIC,MY330/88,32 µM
Cc1ccc(NC(=O)c2ccccc2O)cc1,,,MIC,CNCTC MY330/88,62.5 µM

The last 5 rows once more:

structure,setting,method,endpoint,strain or isolate,result
CCCCCOc1ccc(NC(=O)OC(C)CN2CCCCC2)cc1,,,MIC,MY330/88,32 µM
O=C(Nc1ccccc1)c1ncccc1O,,,MIC,CNCTC MY330/88,250 µM
c1ccc(/C(Cn2ccnc2)=N\OCc2ccc(-c3ccccc3)cc2)cc1,,,MIC,CIP103317,16 µg/mL
Cc1ccc2nc(SCc3ccccc3Cl)[nH]c2c1,,,MIC,MY330/88,32 µM
Cc1ccc(NC(=O)c2ccccc2O)cc1,,,MIC,CNCTC MY330/88,62.5 µM